Compound potency records, mixed from different reports. Data source: NIAID ChemDB in PubChem.

Shared fields: toxicity to cultured cells; cells: VERO; read-out: CC50

Blank or dashed fields: not listed here. Conditions beyond the fields shown may differ between rows. CCn is the concentration with n% toxicity to the cells.

smiles,read by,result
O=C1C(=O)N(CN2CCN(c3cc4c(cc3F)c(=O)c(C(=O)O)cn4C3CC3)CC2)c2ccc(Cl)cc21,,>0.019 µM
COc1cccc([C@H](c2cc3cc(C#N)ccc3nc2OC)[C@@](O)(CCN(C)C)c2ncccc2C)c1F,,>10 µg/mL
Nc1nc(Cl)c2ncn(/C=C3/C[C@H]3CO)c2n1,,55 µM
O=c1[nH]c(=O)n([C@@H]2C[C@@H](F)[C@H](CO)O2)cc1Cl,,>100 µM
Cc1ccccc1-n1c(-c2ccc(F)cc2)cc(CN2CCN(C)CC2)c1C,,2 µg/mL
CCCCCCCCCCCCCCCC(=O)OC[C@H]1O[C@H](OC(=O)NS(=O)(=O)OC[C@H]2O[C@@H](n3ccc(=O)[nH]c3=O)[C@H](OC(C)C)[C@@H]2OC(C)C)[C@H](OC(=O)CCCCCCCCCCCCCCC)[C@@H](OC(=O)CCCCCCCCCCCCCCC)[C@@H]1OC(=O)CCCCCCCCCCCCCCC,,50 µg/mL
O=C1CC[C@H](O)c2cc(O)cc(O)c21,,24.64 µg/mL
CN(C(=O)Nc1ccc(N2CCOCC2)cc1)c1nc(Cl)c(S(=O)(=O)N(C)C)s1,,250 µM
Cc1c(CN2CCN(C)CC2)cc(-c2ccccc2)n1-c1cccc2ccccc12,,2 µg/mL
O=c1[nH]c(=O)n([C@H]2C[C@H](O)[C@@H](COP3(=O)OCc4cccc(-c5ccccc5)c4O3)O2)cc1/C=C/Br,,43 µg/mL
O=c1[nH]c(=O)n([C@@H]2O[C@H](CO)[C@@H](O)[C@@H]2O)cc1C#Cc1ccc2c3cccc4cccc(c5cccc1c52)c43,MTT,>20 µM
O=c1[nH]c(=O)n([C@H]2C[C@H](O)[C@@H](COP3(=O)OCc4c(ccc5ccccc45)O3)O2)cc1/C=C/Br,,44.8 µg/mL
CC(=O)O[C@H]1C[C@H]2C(C)(C)CCC[C@]2(C)[C@@]23CCC(C)(C2)[C@@H](O)C[C@H]13,,50 µg/mL
COc1cccc([C@H](c2cc3cc(Br)ccc3nc2OC)[C@@](O)(CCN(C)C)c2cc(C)ccn2)c1F,,>10 µg/mL
CC(=O)OC[C@H]1O[C@H](OC(=O)NS(=O)(=O)OC[C@H]2O[C@@H](n3ccc(=O)[nH]c3=O)[C@H](OC(C)C)[C@@H]2OC(C)C)[C@H](OC(C)=O)[C@@H](OC(C)=O)[C@@H]1OC(C)=O,,>100 µg/mL
CNS(=O)(=O)c1sc(N(C)C(=O)Cc2ccc(-c3ccccc3)cc2)nc1C,,50 µM
COc1cccc([C@H](c2cc3cc(Br)ccc3nc2OC)[C@@](O)(CCN(C)C)c2cc(C)nc(C)c2)c1OC,,>10 µg/mL
Nc1ncnc2c1ncn2[C@@H]1C[C@H](CO)[C@@H](O)[C@@H]1O,,23 µM
O=C(N/N=C/c1ccc(C(F)(F)F)cc1)c1ccncc1,,>63 µg/mL
COc1ccc([C@H]2[C@@H]3CSCN3[C@@]3(C(=O)N(N4CCOCC4)c4ccccc43)[C@@]23Cc2cc(OC)c(OC)cc2C3=O)cc1OC,MTT,>62.5 µg/mL
Nc1ncnc2c1ncn2C1OC(CO)C=C1F,,>100 µM
COc1cc2c(cc1OC)C(=O)[C@]1(C2)[C@@H](c2ccc(F)cc2)[C@@H]2CSCN2[C@@]12C(=O)Nc1ccc(OC(F)(F)F)cc12,MTT,>62.5 µg/mL
COc1cccc([C@H](c2cc3cc(Br)ccc3nc2OC)[C@@](O)(CCN(C)C)c2ccnc(C)c2)c1F,,>10 µg/mL
Cc1ccc2c(c1)c(N=NC(N)=O)c(O)n2CN1CCN(c2cc3c(cc2F)c(=O)c(C(=O)O)cn3C2CC2)CC1,,>0.111 µM
COc1cccc([C@H](c2cc3cc(C#N)ccc3nc2OC)[C@@](O)(CCN(C)C)c2cc(C)cc(C)n2)c1OC,,>10 µg/mL
Cc1cn([C@@H]2C[C@@H](F)[C@H](CO)O2)c(=O)[nH]c1=O,,>100 µM
O=c1[nH]c(=O)n([C@H]2C[C@H](O)[C@@H](CO)O2)cc1C#Cc1cc2cccc3c4cccc5cccc(c(c1)c23)c54,MTT,>20 µM
COc1cc2c(cc1OC)C(=O)[C@]1(C2)[C@@H](c2ccccc2)[C@@H]2CSCN2[C@@]12C(=O)N(N1CCOCC1)c1ccccc12,MTT,>62.5 µg/mL
NC(=S)N=Nc1c(O)n(CN2CCN(c3cc4c(cc3F)c(=O)c(C(=O)O)cn4C3CC3)CC2)c2ccc(Cl)cc12,,>0.017 µM
COC(=O)CC(=O)O[C@@H]1C[C@@H]2CC[C@H]3C(C)(C)CCC[C@]3(C)[C@]23CCC1(C)C3,,30 µg/mL
Cc1c(CN2CCSCC2)cc(-c2ccccc2F)n1-c1ccccc1F,,32 µg/mL
CC1(C)CCC[C@@]2(C)[C@H]1C[C@@H](O)C1=CC(=O)[C@@]3(C)CC[C@]12C3,,28 µg/mL
Cc1c(CN2CCSCC2)cc(-c2ccccc2)n1-c1cccc2ccccc12,,4 µg/mL
CC(C)O[C@@H]1[C@H](OC(C)C)[C@@H](COS(=O)(=O)NC(=O)O[C@H]2O[C@H](COC(=O)c3ccccc3)[C@H](OC(=O)c3ccccc3)[C@H](OC(=O)c3ccccc3)[C@H]2OC(=O)c2ccccc2)O[C@H]1n1ccc(=O)[nH]c1=O,,150 µg/mL
CC(=O)N[C@@H]1[C@@H](O)[C@H](O)[C@@H](CO)O[C@H]1N[C@H]1[C@H](O)[C@@H](C(=O)O)OC(OC2CC[C@@]3(C)C(CC[C@]4(C)C3C(=O)C=C3C5C[C@@](C)(C(=O)O)CC[C@]5(C)CC[C@]34C)C2(C)C)[C@@H]1OC1O[C@H](O)[C@@H](O)[C@H](O)[C@H]1C(=O)O,,500 µg/mL
NC(=S)N=Nc1c(O)n(CN2CCN(c3cc4c(cc3F)c(=O)c(C(=O)O)cn4C3CC3)CC2)c2ccccc12,,>0.111 µM
O=c1[nH]c(=O)n([C@H]2C[C@H](O)[C@@H](CO)O2)cc1C#CC#Cc1ccc2ccc3cccc4ccc1c2c34,MTT,>20 µM
O=C(N/N=C/C(F)(F)F)c1ccncc1,,15 µg/mL
CC12CC[C@]3(C1)[C@@H](CC2=O)[C@H](O)C[C@H]1C(C)(C)CCC[C@@]13C,,60 µg/mL
CC(C)O[C@@H]1[C@H](OC(C)C)[C@@H](COS(=O)(=O)NC(=O)O[C@H]2O[C@H](COC(=O)c3ccccc3)[C@@H](OC(=O)c3ccccc3)[C@H](OC(=O)c3ccccc3)[C@@H]2OC(=O)c2ccccc2)O[C@H]1n1ccc(=O)[nH]c1=O,,100 µg/mL
C/C(=N\NC(=O)c1ccncc1)c1cccc(/C(C)=N/NC(=O)c2ccncc2)n1,,>64 µg/mL
COc1cccc([C@H](c2cc3cc(Br)ccc3nc2OC)[C@@](O)(CCN(C)C)c2ncccc2C)c1F,,>10 µg/mL
COc1c(O)c2c(c(O)c1CCOC(C)=O)CCC(OC)C2=O,,0.33 µg/mL
N#Cc1cc(C#N)c2[nH]c3ccccc3n2c1=O,,61 µg/mL
O=c1[nH]c(=O)n([C@@H]2O[C@@]3(CO)CO[C@H]2[C@@H]3O)cc1C#Cc1ccc2c3cccc4cccc(c5cccc1c52)c43,MTT,>20 µM
Cc1c(CN2CCN(C)CC2)cc(-c2ccccc2Cl)n1-c1cccc2ccccc12,,2 µg/mL
C/C(=C\CCC1(C)C=Cc2cc(O)cc(C)c2O1)CC/C=C(\C)CC[C@@H](C)C(C)(C)O,,17 µM
CC(C)(C)C(=O)OCn1c(=O)c(C#Cc2ccc3c4cccc5cccc(c6cccc2c63)c54)cn(CC(=O)NC[C@H](O)C(C)(C)CO)c1=O,MTT,>20 µM
COc1cc(O)c2c(c1)[C@H](O)[C@@H](O)CC2=O,,26.35 µg/mL
O=c1[nH]c(=O)n([C@@H]2O[C@H](CO)[C@@H](O)[C@@H]2O)cc1C#Cc1cc2cccc3c4cccc5cccc(c(c1)c23)c54,MTT,>20 µM
Cc1c(CN2CCSCC2)cc(-c2ccc(F)cc2)n1-c1ccc(F)cc1,,8 µg/mL
CC12CC[C@]3(C1)[C@H](CC2=O)[C@@H](O)C[C@H]1C(C)(C)CCC[C@@]13C,,48 µg/mL
O=C(NS(=O)(=O)OC[C@H]1O[C@@H](n2ccc(=O)[nH]c2=O)[C@H](O)[C@@H]1O)O[C@H]1O[C@H](COC(=O)c2ccccc2)[C@@H](OC(=O)c2ccccc2)[C@H](OC(=O)c2ccccc2)[C@@H]1OC(=O)c1ccccc1,,200 µg/mL
COc1cccc([C@H](c2cc3cc(Br)ccc3nc2OC)[C@@](O)(CCN(C)C)c2ccc(C)nc2)c1OC,,>10 µg/mL
O=c1[nH]c(=O)n([C@H]2C[C@H](O)[C@@H](CO[P@]3(=O)OCc4cccc(-c5ccccc5)c4O3)O2)cc1/C=C/Br,,37.8 µg/mL
CO[C@H]1CC(=O)c2c(O)cccc2[C@H]1O,,26.59 µg/mL
CC1(C)CCC[C@@]2(C)[C@H]1C[C@H](O)[C@H]1C[C@@H](O)C3(C)CC[C@]12C3,,30 µg/mL
CC(C)(CO)[C@@H](O)CNC(=O)Cn1cc(C#Cc2ccc3c4cccc5cccc(c6cccc2c63)c54)c(=O)[nH]c1=O,MTT,>20 µM
N#Cc1cc(NC(=O)c2ccccc2)c(=O)n2c1[nH]c1ccccc12,,4.8 µg/mL
COc1cc2c(cc1OC)C(=O)[C@]1(C2)[C@@H](c2ccccc2Cl)[C@@H]2CSCN2[C@@]12C(=O)Nc1ccc(OC(F)(F)F)cc12,MTT,>62.5 µg/mL
Cc1cn([C@@H]2O[C@H](CO)[C@@H](O)[C@@H]2O)c(=O)[nH]c1=O,,360 µM